In patent publication US20100292343A1, “USE OF A DIALKYLKETONE PEROXIDE AS BIOCIDAL, STERILIZING, ANTISEPTIC, DISINFECTING AND ANTI-PARASITIC AGENT” (published 2010):

Legend:
[1] = test system: Escherichia coli ATCC 10536; assay: Bactericidal activity, EN 1276 dilution-neutralisation
[2] = test system: Staphylococcus aureus ATCC 6538; assay: as above
[3] = test system: Pseudomonas aeruginosa ATCC 15442; assay: as above
[4] = test system: Legionella pneumophila ATCC 33152; assay: as above
[5] = test system: Enterococcus hirae ATCC 8043; assay: as above
[6] = test system: poliovirus type 1 ATCC VR-192; assay: Virucidal activity, ASTM E-1053-97, Vero cells
[7] = test system: Mycobacterium terrae ATCC 15755; assay: Mycobactericidal activity, carrier disk ASTM E-2197-02
[8] = test system: Candida albicans ATCC 10321; assay: Fungicidal activity, EN 1275
[9] = test system: Aspergillus niger ATCC 16404; assay: Fungicidal activity, EN 1275
[10] = within 15 and 30 minutes at 0.06% in hard water
[11] = within 5 minutes at 0.125% in hard water
[12] = 0.25% in cell culture medium, exposure time 15 min

## methyl ethyl ketone peroxide
[1]; 0.06% (v/v), t = 5 min
  Na: number of CFU/ml in the assay mixture: 6.6 × 10^2 CFU/ml
  R: Reduction of viability: 0.3 × 10^5
[1]; 0.06% (v/v), t = 15 min
  R: Reduction of viability: ≧10^6
[1]; 0.06% (v/v), t = 30 min
  Na: number of CFU/ml in the assay mixture: 0 CFU/ml
  R: Reduction of viability: ≧10^6
[1]; 0.125% (v/v), t = 5 min
  Na: number of CFU/ml in the assay mixture: 0 CFU/ml
  R: Reduction of viability: ≧10^6
[1]; 0.125% (v/v), t = 15 min
  Na: number of CFU/ml in the assay mixture: 0 CFU/ml
  R: Reduction of viability: ≧10^6
[1]; 0.125% (v/v), t = 30 min
  Na: number of CFU/ml in the assay mixture: 0 CFU/ml
  R: Reduction of viability: ≧10^6
[1]; 0.25% (v/v), t = 5 min
  R: Reduction of viability: ≧10^6
[1]; 0.25% (v/v), t = 15 min
  Na: number of CFU/ml in the assay mixture: 0 CFU/ml
  R: Reduction of viability: ≧10^6
[1]; [10]
  bactericidal activity (conclusion): bactericidal activity
[1]; [11]
  bactericidal activity (conclusion): bactericidal activity
[2]; 0.06% (v/v), t = 5 min
  Na: number of CFU/ml in the assay mixture: 11 × 10^2 CFU/ml
  R: Reduction of viability: 0.1 × 10^5
[2]; 0.06% (v/v), t = 15 min
  Na: number of CFU/ml in the assay mixture: 11.7 × 10^2 CFU/ml
[2]; 0.06% (v/v), t = 30 min
  Na: number of CFU/ml in the assay mixture: 0.15 × 10^2 CFU/ml
  R: Reduction of viability: 10 × 10^5
[2]; 0.125% (v/v), t = 5 min
  R: Reduction of viability: 0.5 × 10^5
[2]; 0.125% (v/v), t = 15 min
  Na: number of CFU/ml in the assay mixture: 0.1 × 10^2 CFU/ml
  R: Reduction of viability: 15 × 10^5
[2]; 0.125% (v/v), t = 30 min
  Na: number of CFU/ml in the assay mixture: 0 CFU/ml
[2]; 0.25% (v/v), t = 5 min
  Na: number of CFU/ml in the assay mixture: 0 CFU/ml
  R: Reduction of viability: ≧10^6
[2]; 0.25% (v/v), t = 15 min
  Na: number of CFU/ml in the assay mixture: 0 CFU/ml
  R: Reduction of viability: ≧10^6
[2]; 0.25% (v/v), t = 30 min
  Na: number of CFU/ml in the assay mixture: 0 CFU/ml
[2]; within 30 minutes at 0.06% in hard water
  bactericidal activity (conclusion): bactericidal activity
[3]; 0.06% (v/v), t = 5 min
  Na: number of CFU/ml in the assay mixture: 0.2 × 10^2 CFU/ml
[3]; 0.06% (v/v), t = 15 min
  Na: number of CFU/ml in the assay mixture: 0 CFU/ml
  R: Reduction of viability: ≧10^6
[3]; 0.06% (v/v), t = 30 min
  Na: number of CFU/ml in the assay mixture: 0 CFU/ml
  R: Reduction of viability: ≧10^6
[3]; 0.125% (v/v), t = 5 min
  R: Reduction of viability: ≧10^6
[3]; 0.125% (v/v), t = 15 min
  Na: number of CFU/ml in the assay mixture: 0 CFU/ml
  R: Reduction of viability: ≧10^6
[3]; 0.125% (v/v), t = 30 min
  Na: number of CFU/ml in the assay mixture: 0 CFU/ml
  R: Reduction of viability: ≧10^6
[3]; 0.25% (v/v), t = 5 min
  R: Reduction of viability: ≧10^6
[3]; 0.25% (v/v), t = 15 min
  Na: number of CFU/ml in the assay mixture: 0 CFU/ml
  R: Reduction of viability: ≧10^6
[3]; 0.25% (v/v), t = 30 min
  Na: number of CFU/ml in the assay mixture: 0 CFU/ml
  R: Reduction of viability: ≧10^6
[4]; [10]
  bactericidal activity (conclusion): bactericidal activity
[4]; [11]
  bactericidal activity (conclusion): bactericidal activity
[5]; 0.06% (v/v), t = 15 min
  Na: number of CFU/ml in the assay mixture: 24.8 × 10^2 CFU/ml
  R: Reduction of viability: 0.09 × 10^5
[5]; 0.06% (v/v), t = 30 min
  Na: number of CFU/ml in the assay mixture: 20.5 × 10^2 CFU/ml
  R: Reduction of viability: 0.1 × 10^5
[5]; 0.125% (v/v), t = 5 min
  Na: number of CFU/ml in the assay mixture: 17.8 × 10^2 CFU/ml
  R: Reduction of viability: 0.1 × 10^5
[5]; 0.125% (v/v), t = 15 min
  Na: number of CFU/ml in the assay mixture: 6.9 × 10^2 CFU/ml
  R: Reduction of viability: 0.3 × 10^5
[5]; 0.125% (v/v), t = 30 min
  Na: number of CFU/ml in the assay mixture: 0 CFU/ml
  R: Reduction of viability: ≧10^6
[5]; 0.25% (v/v), t = 5 min
  Na: number of CFU/ml in the assay mixture: 0.1 × 10^2 CFU/ml
  R: Reduction of viability: 24 × 10^5
[5]; 0.25% (v/v), t = 15 min
  Na: number of CFU/ml in the assay mixture: 0 CFU/ml
[5]; 0.25% (v/v), t = 30 min
  Na: number of CFU/ml in the assay mixture: 0 CFU/ml
  R: Reduction of viability: ≧10^6
[5]; within 5 and 15 minutes at 0.25% in hard water
  bactericidal activity (conclusion): bactericidal activity
[5]; within 30 minutes at 0.125% in hard water
  bactericidal activity (conclusion): bactericidal activity
[6]; [12]
  CPE: cytopathic effect: Absence of CPE
  Reduction (log10): Reduction (log10): ≧5
[6]; 0.25% within 15 minutes
  reduction (conclusion): > 1×10^4 TCID50
  virucidal effect (conclusion): absolute virucidal effect
[7]; 1% within 15 and 30 minutes
  mycobactericidal effect (conclusion): mycobactericidal effect
[7]; peroxide 0.5%, exposure time 5 min
  mean number of colony forming units per ml recovered after exposure of 10 test carrier disks: 175 CFU/ml
[7]; peroxide 0.5%, exposure time 15 min
  mean number of colony forming units per ml recovered after exposure of 10 test carrier disks: 100 CFU/ml
[7]; peroxide 0.5%, exposure time 30 min
  mean number of colony forming units per ml recovered after exposure of 10 test carrier disks: 90 CFU/ml
[7]; peroxide 1%, exposure time 5 min
  mean number of colony forming units per ml recovered after exposure of 10 test carrier disks: 160 CFU/ml
[7]; peroxide 1%, exposure time 15 min
  mean number of colony forming units per ml recovered after exposure of 10 test carrier disks: 0 CFU/ml
[7]; peroxide 1%, exposure time 30 min
  mean number of colony forming units per ml recovered after exposure of 10 test carrier disks: 0 CFU/ml
[7]; peroxide 2%, exposure time 5 min
  mean number of colony forming units per ml recovered after exposure of 10 test carrier disks: 0 CFU/ml
[7]; peroxide 2%, exposure time 15 min
  mean number of colony forming units per ml recovered after exposure of 10 test carrier disks: 0 CFU/ml
[7]; peroxide 2%, exposure time 30 min
  mean number of colony forming units per ml recovered after exposure of 10 test carrier disks: 0 CFU/ml
[7]; peroxide 4%, exposure time 5 min
  mean number of colony forming units per ml recovered after exposure of 10 test carrier disks: 0 CFU/ml
[7]; peroxide 4%, exposure time 15 min
  mean number of colony forming units per ml recovered after exposure of 10 test carrier disks: 0 CFU/ml
[7]; peroxide 4%, exposure time 30 min
  mean number of colony forming units per ml recovered after exposure of 10 test carrier disks: 0 CFU/ml
[8]; 0.06% (v/v), t = 5 min
  Na: number of CFU/ml in the assay mixture: 0.6 × 10^2 CFU/ml
  R: Reduction of viability: 2.5 × 10^4
[8]; 0.06% (v/v), t = 15 min
  Na: number of CFU/ml in the assay mixture: 0 CFU/ml
  R: Reduction of viability: ≧10^5
[8]; 0.06% (v/v), t = 30 min
  Na: number of CFU/ml in the assay mixture: 0 CFU/ml
[8]; 0.125% (v/v), t = 5 min
  Na: number of CFU/ml in the assay mixture: 0.1 × 10^2 CFU/ml
[8]; 0.125% (v/v), t = 15 min
  Na: number of CFU/ml in the assay mixture: 0 CFU/ml
  R: Reduction of viability: ≧10^5
[8]; 0.125% (v/v), t = 30 min
  R: Reduction of viability: ≧10^5
[8]; 0.25% (v/v), t = 5 min
  Na: number of CFU/ml in the assay mixture: 0 CFU/ml
  R: Reduction of viability: ≧10^5
[8]; 0.25% (v/v), t = 15 min
  R: Reduction of viability: ≧10^5
[8]; 0.25% (v/v), t = 30 min
  Na: number of CFU/ml in the assay mixture: 0 CFU/ml
  R: Reduction of viability: ≧10^5
[8]; norm EN 1275
  fungicidal activity (conclusion): fungicidal activity
[9]; 0.06% (v/v), t = 5 min
  Na: number of CFU/ml in the assay mixture: 0.4 × 10^2 CFU/ml
  R: Reduction of viability: 1.3 × 10^4
[9]; 0.06% (v/v), t = 15 min
  R: Reduction of viability: 1.3 × 10^4
[9]; 0.06% (v/v), t = 30 min
  R: Reduction of viability: 1.3 × 10^4
[9]; 0.125% (v/v), t = 5 min
  Na: number of CFU/ml in the assay mixture: 0.1 × 10^2 CFU/ml
  R: Reduction of viability: 3.6 × 10^4
[9]; 0.125% (v/v), t = 15 min
  Na: number of CFU/ml in the assay mixture: 0.1 × 10^2 CFU/ml
  R: Reduction of viability: 5.5 × 10^4
[9]; 0.125% (v/v), t = 30 min
  Na: number of CFU/ml in the assay mixture: 0.1 × 10^2 CFU/ml
  R: Reduction of viability: 5.5 × 10^4
[9]; 0.25% (v/v), t = 5 min
  R: Reduction of viability: ≧10^5
[9]; 0.25% (v/v), t = 15 min
  Na: number of CFU/ml in the assay mixture: 0 CFU/ml
  R: Reduction of viability: ≧10^5
[9]; 0.25% (v/v), t = 30 min
  Na: number of CFU/ml in the assay mixture: 0 CFU/ml
  R: Reduction of viability: ≧10^5
